Biological target: PSA (prostate specific antigen) (UniProt P07288)
Assay: cell-based or functional assay

Analog 210 (Ac-Hyp-Ser-Ser-Chg-Gln-Ser-Ser-Pro-O-(CH2)3-acylfulvene) (peptide)
cytotoxicity IC50, 48 hour exposure, Prostate DuPro cells (trace PSA): 3500 nM
cytotoxicity IC50, 48 hour exposure, Prostate LnCAP cells (positive PSA): 810 nM
cytotoxicity IC50, 48 hour exposure, Prostate PC3 cells (negative PSA, control): 4700 nM

Analog 215 (Illudin S-Pro-Ser-Ser-Gln-Chg-Ser-Ser-Hyp-Ac) (peptide)
cytotoxicity IC50, 48 hour exposure, Prostate LnCAP cells (positive PSA): > 20000 nM

Analog 216 (Illudin M-Pro-Ser-Ser-Gln-Chg-Ser-Ser-Hyp-Ac) (peptide)
cytotoxicity IC50, 48 hour exposure, Prostate DuPro cells (trace PSA): 280 nM
cytotoxicity IC50, 48 hour exposure, Prostate LnCAP cells (positive PSA): 190 nM
cytotoxicity IC50, 48 hour exposure, Prostate PC3 cells (negative PSA, control): 190 nM
